# Reference: PubChem BioAssay AID651 (University of Pittsburgh Molecular Library Screening Center, 2007)
# This is a selection; strong and weak results do not stand in their true shares. Results filed as inconclusive are left out. Calls of active or inactive are those of the source. No stated cut-off is given here; in the data, active means inhibition above about 48%; inconclusive means no clear call, values can overlap the other calls; inactive means below that.
# Target: Gag-Pol polyprotein (Human immunodeficiency virus type 1 group M subtype B (isolate HXB2)) (UniProt P04585)
# Assay: HIV-1 RT RNase H inhibitors, retest, confirmation, biochemical (AID 651)
# Details: Recombinant RT RNase H, fluorescent RNA/DNA duplex cleavage; at 10 µM; hits give high values
row,Structure (SMILES),inhibition
1,O=P(Nc1nccs1)(c1ccccc1)c1nc2ccccc2s1 (configuration not stated),active: 67.8%
2,CCOP1(=S)c2c(C)nn(CCC#N)c2N=C(c2ccc(F)cc2)N1C (configuration not stated),inactive: 15.9%
